The entries are a selection whose mix differs from that of the whole data set. Activity calls are given as the source filed them. No stated cut-off is given here; in the data, active means inhibition above about 30%; inconclusive means no clear call, values can overlap the other calls; inactive means below that.
Target: Lethal factor (Bacillus anthracis) (UniProt P15917)
Assay: anthrax lethal factor cleavage blockers – biochemical, multiplex microsphere, MLPCN library, primary screen (AID 588501); further: plate controls were buffer without enzyme for full effect and enzyme alone for no effect
Conditions: multiplex microsphere protease cleavage assay, LF; at 10 µM; hits give high values

Amino acid sequences for entries named in this document (tags omitted).
UniProt P15917, whole entry, looked up: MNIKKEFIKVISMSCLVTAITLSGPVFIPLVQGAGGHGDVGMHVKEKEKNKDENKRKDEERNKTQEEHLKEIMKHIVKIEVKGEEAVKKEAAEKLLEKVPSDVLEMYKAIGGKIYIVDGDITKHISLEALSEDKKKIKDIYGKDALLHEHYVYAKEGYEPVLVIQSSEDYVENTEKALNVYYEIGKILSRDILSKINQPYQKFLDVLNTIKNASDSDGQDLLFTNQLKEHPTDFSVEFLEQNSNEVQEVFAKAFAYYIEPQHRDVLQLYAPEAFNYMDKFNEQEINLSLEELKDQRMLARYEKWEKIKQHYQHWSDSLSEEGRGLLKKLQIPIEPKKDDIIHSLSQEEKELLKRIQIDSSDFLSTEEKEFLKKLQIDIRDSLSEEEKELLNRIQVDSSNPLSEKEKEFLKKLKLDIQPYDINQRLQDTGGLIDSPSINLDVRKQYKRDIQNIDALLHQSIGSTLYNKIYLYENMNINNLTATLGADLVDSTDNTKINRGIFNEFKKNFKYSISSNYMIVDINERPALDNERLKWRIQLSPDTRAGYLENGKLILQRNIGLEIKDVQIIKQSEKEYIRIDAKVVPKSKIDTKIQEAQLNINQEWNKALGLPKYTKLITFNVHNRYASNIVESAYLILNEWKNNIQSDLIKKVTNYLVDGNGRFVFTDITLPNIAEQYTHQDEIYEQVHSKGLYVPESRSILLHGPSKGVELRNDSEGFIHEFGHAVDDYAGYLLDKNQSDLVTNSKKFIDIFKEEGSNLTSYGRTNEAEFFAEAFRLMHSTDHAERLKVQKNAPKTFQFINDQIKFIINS

| Compound | inhibition |
| --- | --- |
| c1nnnn1CCn1cnnn1 | inactive: -1.1% |
| CC(C)C(=O)NC(Sc1ccccc1)C(Cl)(Cl)Cl (configuration not stated) | inactive: 0.2% |
| O=P(Nc1nccs1)(c1ccccc1)c1ccccc1 | inactive: -2.8% |
| O=P(Nc1nc2ccccc2s1)(c1ccccc1)c1ccccc1 | inactive: 1.4% |
| C[C@H]1OP(=O)(Oc2ccccc2)[C@H](O)[C@H](O)[C@H]1N=[N+]=[N-] (some centres not stated) | inactive: -0.7% |
| Nc1ccc(CCCCOc2ccccc2)cc1 | inactive: -10.3% |
| COc1ccc(N)c([N+](=O)[O-])c1[N+](=O)[O-] | inactive: -8.4% |
| O=P(Nc1ccccn1)(c1ccc(Br)cc1)c1ccc(Br)cc1 | inactive: -5.1% |
| Nc1ccc([As](=O)(O)c2ccc([N+](=O)[O-])cc2)cc1 | inactive: -8% |
| C(Cc1nn[nH]n1)Cc1nn[nH]n1 | inactive: 2.1% |
| O=C(OC1CN2CCC1CC2)c1cccc(Cl)c1 (configuration not stated) | inactive: 1.7% |
| O=[N+]([O-])c1ccc(O)c(/C=N/Nc2ccc([N+](=O)[O-])cc2[N+](=O)[O-])c1 | inactive: -1.2% |
| CC(=O)NC(SC(=S)N(C)C)C(Cl)(Cl)Cl (configuration not stated) | inactive: -2.9% |
| O=[N+]([O-])c1ncn(CCn2cnc([N+](=O)[O-])n2)n1 | inactive: 2.8% |
| O=[As](O)(c1ccccc1)c1ccc(O)cc1 | inactive: -12.1% |
| O=P1(N(CCCl)CCCl)OCCC2CCCCN21 (configuration not stated) | inactive: -4.3% |
| CCNC(=S)/N=C(\N)N[N+](=O)[O-] | inactive: 3.1% |
| O=C(NC1CCS(=O)(=O)C1)NP(=S)(Oc1ccccc1)Oc1ccccc1 (configuration not stated) | inactive: 3.8% |
| c1ccc(-c2nn[nH]n2)c(-c2nn[nH]n2)c1 | inactive: -3.3% |
| CC(NC(=O)COC(=O)C(O)(c1ccccc1)c1ccccc1)c1ccccc1 (configuration not stated) | inactive: -0.3% |
| CN(C)C(=O)Oc1noc2ccccc12 | inactive: 10.5% |
| O=c1c2cc([N+](=O)[O-])ccc2[nH]c2c([N+](=O)[O-])cc([N+](=O)[O-])cc12 | inactive: -5% |
| COC(=O)c1cc2c(s1)N=C(c1ccccc1)N(C)P2(=O)N1CCOCC1 (configuration not stated) | inactive: 2.4% |

| Compound | inhibition |
| --- | --- |
| CC(=O)NC(SC(=S)N(CC(C)C)CC(C)C)C(Cl)(Cl)Cl (configuration not stated) | inactive: -1.7% |
| Cc1ccc(OP(=O)(Nc2ccccn2)Oc2ccc(C)cc2)cc1 | inactive: -0.6% |
| O=C(OC1CN2CCC1CC2)c1ccccc1 (configuration not stated) | inactive: -4.9% |
| CCC(=O)N1C2C3N(C(=O)CC)C1C1N(C(=O)CC)C(C(N1C(=O)CC)N3C(=O)CC)N2C(=O)CC | inactive: 0.5% |
| CCc1cc(O)c([N+](=O)[O-])c(C)c1[N+](=O)[O-] | inactive: -4.4% |
| CC(C)(C)C(=O)NC(Sc1ccccc1)C(Cl)(Cl)Cl (configuration not stated) | inactive: 1% |
| O=P1(Nc2nc3ccc(Cl)cc3s2)COc2ccccc2O1 (configuration not stated) | inactive: 7.8% |
| CCOc1ccc(C2=NCC(CBr)S2)cc1 (configuration not stated) | inactive: -6.4% |
| CC(=O)Nc1ccc([As](=O)(O)O)c(O)c1 | inactive: -4.7% |
| CC(=O)Nc1ccc(Oc2c([N+](=O)[O-])cc([N+](=O)[O-])cc2[N+](=O)[O-])cc1 | inactive: -3.1% |
| N#C/C(=C\c1ccc(N(CCBr)CCBr)cc1)C(N)=O | inactive: 2.6% |
| CC(=O)c1ccc(N2CC2c2ccncc2)cc1 (configuration not stated) | inactive: -6% |
| COC(=O)C1(C)COP(=O)(NCc2ccccc2)OC1 (configuration not stated) | inactive: 0.7% |
| Cc1ccccc1CN(C)C(=O)COC(=O)C(O)(c1ccccc1)c1ccccc1 | inactive: 1% |
| C[C@@H]1C=CCP(=O)(Oc2ccccc2)O1 (some centres not stated) | inactive: 0.9% |
| C[C@H]1OP(=O)(Oc2ccccc2)C[C@@H]2O[C@@H]21 (some centres not stated) | inactive: -7.6% |
| COc1ccccc1OP(=O)(Nc1ccc(C)cn1)Oc1ccccc1OC | inactive: -1.8% |
| Cc1ccc(OP(=O)(Nc2nccs2)Oc2ccc(C)cc2)cc1 | inactive: -0.4% |
| Clc1ccc(Cl)c(NC2=NCC(CBr)S2)c1 (configuration not stated) | inactive: -4.1% |
| CN1CCCC(OC(=O)C(c2ccccc2)c2ccccc2)C1 (configuration not stated) | inactive: 2.8% |
| NC(=O)c1cc([N+](=O)[O-])cc([N+](=O)[O-])c1N | inactive: -0.3% |
| CN(C(=O)Cc1ccc(Cl)c(Cl)c1)[C@H]1CCCC[C@H]1N1CCCC1 | inactive: -4.3% |
| Cc1ccc(N/C(=N/P(=O)(N2CCOCC2)N2CCOCC2)N2CCOCC2)cc1 | inactive: -6% |

| Compound | inhibition |
| --- | --- |
| O=[N+]([O-])C1C(O)C(O)C([N+](=O)[O-])C(O)C1O (configuration not stated) | inactive: -2.3% |
| CC(C)CC(=O)NC(Sc1ccc(Cl)cc1)C(Cl)(Cl)Cl (configuration not stated) | inactive: -2.5% |
| Nc1cc(N)c2nonc2c1[N+](=O)[O-] | inactive: 4.6% |
| Oc1ccccc1CNc1ccccn1 | inactive: 5.2% |
| O=C(NC(Sc1ccncn1)C(Cl)(Cl)Cl)c1ccccc1 (configuration not stated) | inactive: -4% |
| CCOP(=O)(Nc1ccccc1)OCC | inactive: -0.2% |
| Cc1cc(SC(NC(=O)c2ccc(F)cc2)C(Cl)(Cl)Cl)ncn1 (configuration not stated) | inactive: -1.5% |
| Cc1ccc(NP(=O)(Oc2ccccc2F)Oc2ccccc2F)nc1 | inactive: -2% |
| CN(C(=O)Cc1ccc(Cl)c(Cl)c1)[C@H]1CCCC[C@@H]1N1CCCC1 | inactive: -3.4% |
| O=C(O)c1ccccc1[As](=O)(O)O | inactive: -7.4% |
| CC(=O)Nc1ccc([As](=O)(O)O)cc1 | inactive: -2.6% |
| CCCC1OP(N)(=O)OCC1CC (configuration not stated) | inactive: 0.8% |
| CN(C)P(=O)(N(C)C)n1c(Nc2ccccc2)nnc1-c1ccccc1 | inactive: -1.5% |
| O=P(Nc1nc2ccc(Cl)cc2s1)(c1ccccc1)c1ccccc1 | inactive: -3.7% |
| CCN(N=Nc1nonc1N)c1nonc1N | inactive: 3.1% |
| Nc1cccc2ccc([As](=O)(O)O)cc12 | inactive: -2.4% |
| O=C(Nc1cc([As](=O)(O)O)ccc1O)c1ccccc1 | inactive: 8.4% |
| O=P1(N(CCCl)CCCl)OCCCS1 (configuration not stated) | inactive: -2.9% |
| O=[N+]([O-])c1cccc(NC2=NCC(CBr)S2)c1 (configuration not stated) | inactive: -2.6% |
| COC(=O)C1(C)COP(=O)(Nc2ccccc2)OC1 (configuration not stated) | inactive: -1.4% |
| O=C(O)CNc1ccc([As](=O)(O)O)cc1 | inactive: -6.1% |

Source: PubChem BioAssay AID588501 (NMMLSC, 2011)
